Results of unrelated studies side by side (data: NIAID ChemDB).

Common to all: growth or infection tests

Blank or dashed fields: not listed here. Percent inhibition refers to the dose given; in toxicity tests it is the harm to the cells. ECn: concentration that inhibits the pathogen or its effect by n%. Neighbouring rows are from separate reports.

SMILES	cell line	organism	endpoint	strain or isolate	dose	value
Nc1ccn(C[C@@H](CO)OCP(=O)(O)O)c(=O)n1	VERO	Variola virus	EC50	Isolate 102		23 µg/mL
CC(OC(=O)Nc1ccc2ccccc2c1)c1ccc2c(c1)Sc1ccccc1O2	BSC-1	Poliovirus	inhibition	TYPE 3	2 µg/mL	10%
O=C(NS(=O)(=O)OC[C@H]1O[C@@H](n2ccc(=O)[nH]c2=O)[C@H](O)[C@@H]1O)O[C@H]1O[C@H](COC(=O)c2ccccc2)[C@@H](OC(=O)c2ccccc2)[C@H](OC(=O)c2ccccc2)[C@H]1OC(=O)c1ccccc1	VERO	African swine fever virus	EC50			18 µg/mL
O=c1cnn([C@@H]2O[C@H](COP(=O)(O)O)[C@@H](O)[C@H]2O)c(=O)[nH]1	VERO	Venezuelan equine encephalitis virus	EC50	Trinidad donkey		3.9 µg/mL
CC(C)OC1[C@H](n2ccc(=O)[nH]c2=O)O[C@H](COS(=O)(=O)NC(=O)N[C@@H]2O[C@H](COC(=O)c3ccccc3)[C@@H](OC(=O)c3ccccc3)[C@H](OC(=O)c3ccccc3)[C@H]2OC(=O)c2ccccc2)[C@H]1OC(C)C	VERO	African swine fever virus	EC50			20 µg/mL
Nc1ccn(C[C@@H](CO)OCP(=O)(O)O)c(=O)n1	VERO	Cowpox virus	EC50	Brighton		53 µM
CC(C)CCCC(COS(=O)(=O)O)C1CCC2C3CC=C4C[C@H](O)[C@@H](OS(=O)(=O)O)CC4(C)C3CCC12C	VERO	Junin virus	inhibition	IV4454	40 µg/mL	8.7%
CCOP(=O)(NC(C)C(=O)OC)OC[C@H]1O[C@@H](n2ncc(=O)[nH]c2=O)C(O)C1O	VERO	Japanese encephalitis virus	EC50	Nakayama		22.4 µg/mL
O=c1[nH]c(=O)n([C@H]2C[C@H](O)[C@@H](CO)O2)cc1I	C1271	Cowpox virus	EC50	Brighton		0.8 µM
CC(O)c1ccc2c(c1)Sc1ccccc1S2	BSC-1	Poliovirus	inhibition	TYPE 3	2 µg/mL	24%
Cn1cc(NC(=O)c2cc(NC(=O)CN=C(N)N)cn2C)c(C(=O)NCCC(=N)N)c1	BSC-1	Vaccinia virus	inhibition	Noguchi	200 µg/mL	100%
NC(=O)c1[nH]nc([C@@H]2O[C@H](CO)[C@@H](O)[C@H]2O)c1O	VERO	Venezuelan equine encephalitis virus	EC50	Trinidad donkey		0.02 µg/mL
Cc1ccc(N2C(=O)CS/C2=N/N=C2\C(=O)Nc3ccc([N+](=O)[O-])cc32)cc1	VERO	Yellow fever virus	EC50			4 µg/mL
Nc1nc(=O)n([C@@H]2O[C@H](CO)[C@@H](O)[C@@H]2F)cc1I	VERO	Cowpox virus	EC50	Brighton		39 µM
CC(=O)OC[C@H]1O[C@H](OC(=O)NS(=O)(=O)OC[C@H]2O[C@@H](n3ccc(=O)[nH]c3=O)[C@H](OC(C)C)[C@@H]2OC(C)C)[C@H](OC(C)=O)[C@@H](OC(C)=O)[C@@H]1OC(C)=O	VERO	African swine fever virus	EC50			>100 µg/mL
Nc1nc2c(ncn2[C@@H]2O[C@H](CO)[C@@H](O)[C@@H]2O)c(=O)[nH]1	VERO	Cowpox virus	EC50	Brighton		197 µM
CC(=O)c1ccc(Oc2ccccc2)cc1	BSC-1	Poliovirus	inhibition	TYPE 3	0.4 µg/mL	33%
Cc1ccc(C(=O)CCCCCCOc2ccc(C3=NC(C)CO3)cc2)s1	VERO	Poliovirus	EC50	TYPE 2		>25.97 µM
CN[C@H]1C[C@@H](n2cnc3c(N)ncnc32)[C@H](O)[C@@H]1O	HFF	Venezuelan equine encephalitis virus	EC50			>100 µg/mL
O=C(NS(=O)(=O)OC[C@H]1O[C@@H](n2ccc(=O)[nH]c2=O)[C@H](O)[C@@H]1O)O[C@@H]1C[C@@H](OC(=O)c2ccccc2)[C@H](OC(=O)c2ccccc2)[C@@H](COC(=O)c2ccccc2)O1	VERO	African swine fever virus	EC50			>100 µg/mL
CC(O)c1ccc2c(c1)Cc1ccccc1O2	BSC-1	Poliovirus	inhibition	TYPE 3	10 µg/mL	100%
NC(=O)c1csc([C@@H]2O[C@H](CO)[C@@H](O)[C@H]2O)n1	LLC-MK2	Variola virus	EC50	Isolate Brazil Garcia		6.1 µg/mL
C=CCN1C(=O)CS/C1=N/N=C1\C(=O)Nc2ccc([N+](=O)[O-])cc21	VERO	Yellow fever virus	EC50			2.18 µg/mL
CC(C)=CCCC(COS(=O)(=O)O)C1CCC2C3CC=C4C[C@H](O)[C@@H](OS(=O)(=O)O)CC4(C)C3CCC12C	VERO	Junin virus	inhibition	IV4454	80 µg/mL	27.2%
CC(=O)O[C@H]1C[C@H](n2cc(C)c(=O)[nH]c2=O)O[C@@H]1COS(=O)(=O)NC(=O)O[C@H]1O[C@H](COCc2ccccc2)[C@@H](OCc2ccccc2)[C@H](OCc2ccccc2)[C@H]1OCc1ccccc1	VERO	African swine fever virus	EC50			10 µg/mL
Cc1ccc(C(=O)CCCCOc2ccc(C3=NC(C)(C)CO3)cc2)s1	VERO	Poliovirus	EC50	TYPE 1		>26.95 µM
Clc1ccc2c(c1)C=C(c1ccc(Br)cc1)CO2	HEP-2	Poliovirus	inhibition	SABIN (TYPE 2)	10 µM	5%
CNC(=S)N=Nc1c(O)n(CN2CCOCC2)c2ccc([N+](=O)[O-])cc12	VERO	Yellow fever virus	EC50			>100 µg/mL
CC(O)c1ccc2c(c1)S(=O)(=O)c1ccccc1O2	BSC-1	Poliovirus	inhibition	TYPE 3	0.4 µg/mL	1%
CC(C)=CCC[C@@H](COS(=O)(=O)O)C1CCC2C3CC[C@H]4C[C@H](OS(=O)(=O)O)[C@@H](O)CC4(C)C3CCC21C	VERO	Junin virus	inhibition	IV4454	40 µg/mL	3.5%
Clc1ccc(C2COc3ccc(Cl)cc3C2)cc1	HEP-2	Poliovirus	inhibition	SABIN (TYPE 2)	10 µM	20%
Cc1ccc(C(=O)CCCCCCOc2ccc(C3=NCC(C)O3)cc2)s1	VERO	Poliovirus	EC50	TYPE 1		>25.97 µM
Nc1cnn([C@@H]2O[C@H](CO)C(O)C2O)c(=S)n1	VERO	Japanese encephalitis virus	EC50	Nakayama		465 µg/mL
CC(=O)O[C@H]1C[C@H](n2ccc(=O)[nH]c2=O)O[C@@H]1COS(=O)(=O)NC(=O)O[C@H]1O[C@H](COC(=O)c2ccccc2)[C@@H](OC(=O)c2ccccc2)[C@H](OC(=O)c2ccccc2)[C@H]1OC(=O)c1ccccc1	VERO	African swine fever virus	EC50			50 µg/mL
Clc1ccc(C2=Cc3cc(Cl)ccc3OC2)cc1	HEP-2	Poliovirus	inhibition	IA (TYPE 2)	10 µM	55%
CC12CC[C@H](OS(=O)(=O)O)CC1=CCC1C2CCC2(C)C(C(=O)CO)CCC12	VERO	Junin virus	inhibition	IV4454	80 µg/mL	13.1%
CC(=O)c1ccc2c(c1)S(=O)(=O)c1ccccc1O2	BSC-1	Poliovirus	inhibition	TYPE 3	0.4 µg/mL	12%
O=[N+]([O-])c1ccc2c(c1)c(N=NC(=S)NC1CCCCC1)c(O)n2CN1CCCCC1	VERO	Yellow fever virus	EC50			<0.8 µg/mL
Cn1cc(NC(=O)c2cc(NC(=O)c3cc(NC=O)cn3C)cn2C)cc1C(=O)NCCC(=N)N	BSC-1	Vaccinia virus	inhibition	Noguchi	25 µg/mL	89%
CCC(=O)c1ccc2c(c1)Sc1ccccc1O2	BSC-1	Poliovirus	inhibition	TYPE 3	10 µg/mL	100%
Cc1cn([C@@H]2O[C@H](CO)[C@@H](O)[C@@H]2O)c(=O)[nH]c1=O	VERO	Cowpox virus	EC50	Brighton		123 µM
CCC1COC(c2ccc(OCCCCC(=O)c3ccc(C)s3)cc2)=N1	VERO	Poliovirus	EC50	TYPE 2		>26.95 µM
O=[N+]([O-])c1ccc2[nH]c(O)c(N=NC(=S)Nc3ccc(F)cc3)c2c1	VERO	Yellow fever virus	EC50			<0.8 µg/mL
O=c1cnn([C@@H]2O[C@H](CO)[C@@H](O)[C@H]2O)c(=O)[nH]1	VERO	Venezuelan equine encephalitis virus	EC50	Trinidad donkey		1.28 µg/mL
CC(C)O[C@@H]1[C@H](OC(C)C)[C@@H](COS(=O)(=O)NC(=O)O[C@H]2O[C@H](COC(=O)c3ccccc3)[C@@H](OC(=O)c3ccccc3)[C@H](OC(=O)c3ccccc3)[C@H]2OC(=O)c2ccccc2)O[C@H]1n1ccc(=O)[nH]c1=O	VERO	African swine fever virus	EC50			0.1 µg/mL
Nc1ncc2c(ncn2COC(CO)CO)n1	C1271	Cowpox virus	EC50	Brighton		3.5 µM
CC(=O)c1ccc2c(c1)Sc1ccccc1O2	BSC-1	Poliovirus	inhibition	TYPE 3	2 µg/mL	100%
Nc1nc2ncn(O)c2c(=O)[nH]1	BHK	Japanese encephalitis virus	EC50	Nakayama		30 µg/mL
Clc1ccc(C2COc3ccccc3C2)cc1	HEP-2	Poliovirus	inhibition	IB (TYPE 2)	10 µM	0%
Cc1cn([C@@H]2O[C@H](CO)[C@@H](O)[C@@H]2F)c(=O)[nH]c1=O	VERO	Cowpox virus	EC50	Brighton		19 µM

3 of the rows above, restated:

SMILES | cell line | organism | endpoint | strain or isolate | dose | value
CNC(=S)N=Nc1c(O)n(CN2CCOCC2)c2ccc([N+](=O)[O-])cc12 | VERO | Yellow fever virus | EC50 |  |  | >100 µg/mL
Cn1cc(NC(=O)c2cc(NC(=O)c3cc(NC=O)cn3C)cn2C)cc1C(=O)NCCC(=N)N | BSC-1 | Vaccinia virus | inhibition | Noguchi | 25 µg/mL | 89%
O=C(NS(=O)(=O)OC[C@H]1O[C@@H](n2ccc(=O)[nH]c2=O)[C@H](O)[C@@H]1O)O[C@H]1O[C@H](COC(=O)c2ccccc2)[C@@H](OC(=O)c2ccccc2)[C@H](OC(=O)c2ccccc2)[C@H]1OC(=O)c1ccccc1 | VERO | African swine fever virus | EC50 |  |  | 18 µg/mL